Patent publication US20250275988A1, “FORMULATION FOR TREATING URINARY SYSTEM DISORDERS” (WATERSHED MEDICAL, INC., priority 2022, published 2025)

Assay: density and max drug loading of antimicrobial agents considered for carrier particles
Format: physicochemical
Details: Table 7

Compound	Max Drug Loading [%]
CC(C)(O/N=C(\C(=O)N[C@@H]1C(=O)N2C(C(=O)[O-])=C(C[n+]3ccccc3)CS[C@H]12)c1csc(N)n1)C(=O)O [Ceftazidime]	18
[H]/N=C(\N/C(=N/[H])NCCCCCCNC(=N)NC(=N)Nc1ccc(Cl)cc1)Nc1ccc(Cl)cc1 [Chlorohexidine]	28
NC[C@H]1O[C@H](O[C@H]2[C@H](O)[C@@H](O[C@H]3O[C@H](CO)[C@@H](O)[C@H](N)[C@H]3O)[C@H](N)C[C@@H]2N)[C@H](N)C[C@@H]1O [Tobramycin]	20
CO[C@@]1(NC(=O)Cc2cccs2)C(=O)N2C(C(=O)O)=C(COC(N)=O)CS[C@@H]21 [Cefoxitin]	18
CO/N=C(\C(=O)N[C@@H]1C(=O)N2C(C(=O)[O-])=C(C[N+]3(C)CCCC3)CS[C@H]12)c1csc(N)n1 [Cefepime]	18
C[C@@H](O)[C@H]1C(=O)N2C(C(=O)O)=C(S[C@@H]3CN[C@H](C(=O)N(C)C)C3)[C@H](C)[C@H]12 [Meropenem]	21
C[C@@H](O)[C@H]1C(=O)N2C(C(=O)O)=C(S[C@@H]3CN[C@H](C(=O)Nc4cccc(C(=O)O)c4)C3)[C@H](C)[C@H]12 [Ertapenem]	18
NCC[C@H](O)C(=O)N[C@@H]1C[C@H](N)[C@@H](O[C@H]2O[C@H](CN)[C@@H](O)[C@H](O)[C@H]2O)[C@H](O)[C@H]1O[C@H]1O[C@H](CO)[C@@H](O)[C@H](N)[C@H]1O [Amikacin]	18
C[C@H]1[C@H](NC(=O)/C(=N\OC(C)(C)C(=O)O)c2csc(N)n2)C(=O)N1S(=O)(=O)O [Aztreoman]	16
